Source: ChEMBL document CHEMBL4513160, “CO-ADD screening of MMV (CH) - Small Polar Library”

Tested on: Pseudomonas aeruginosa
Conditions: ATCC 27853, Concentration 300.0 ug.mL-1

NC(CF)c1ccc(F)cc1 (stereo unspecified)
inhibition: 18.9%
